Measured values published in article PMC7035229.

Experiments:
[1] = molecular target: cellular prion protein (PrP^C) of wild-type mouse primary cortical neurons (mouse (endogenous in mouse primary neurons)) (UniProt P04925); test: immunostaining of cells or tissue
[2] = molecular target: recombinant murine prion protein PrP_(23–231) (mouse) (UniProt P04925); test: ELISA

“soluble aggregates of Aβ_(1–42) (SBAs) (from UniProt P05067 672-713) (peptide)” was tested, and the reduction in binding to Prnp^−/− MPNs relative to WT [1] was > 50%.

For “soluble aggregates of α-synuclein (SAAs) (from UniProt P37840 1-140) (natural protein)”, the EC50 [2] was 34.3 nM.
